Publication PMC3041857 (Journal of medicinal chemistry, 2011)

Test system: MDR1-MDCK cell monolayers

COc1ccc(-c2csc(Nc3cc4ccccc4cn3)n2)cc1OC [Compound 17, [4-(3,4-dimethoxyphenyl)-thiazol-2-yl]-isoquinolin-3-yl-amine]
Permeability (in words): greater permeability in the absorptive direction
